Record: PubChem BioAssay AID504761 (Drosophila RNAi Screening Center, 2011)
The deposit covers about 22,000 reagents; shown is a random part of those that have a named target and a result. In the full data, 116 (0.52%) got an active call. 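Calls depend on retest data that are not deposited; infection was ranked per plate without normalising between plates; the unit of the infection score is not given.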 Raw values vary from plate to plate and are shown uncorrected. Names joined by + are all predicted targets of the reagent. Further read-outs or replicates are left out here. Not given: the amount of reagent, the time to read-out.

Test: 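Fly genes whose silencing reduces dengue virus type 2 infection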 (primary screen)
System: D.Mel-2 cells from Drosophila
Knock-down reagent: long dsRNA against Drosophila genes
Treatment: infection with dengue virus type 2; dose and infection time not stated
Read-out: 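Per well on two replicate plates, imaging gave the percent of cells positive for viral envelope protein, ranked by infection, and a nuclear count of cells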
Scale: infection score: higher = more virus-infected cells; cell count: higher = more cells in the well
Call rule: 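Low infection ranks in the two replicates (chance level up to 0.065) followed by a retest with a 1.5-fold or larger significant decrease, p below 0.05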
Calls: active = confirmed: knock-down lowers infection; inactive = not picked or not confirmed

target	dsRNA	infection score, replicate 1	infection score, replicate 2	cell count, replicate 1	call
Vps33B	DRSC15722	5.21	2.13	6609	inactive
vih	DRSC09778	3.66	3.46	3957	inactive
vih	DRSC23625	1.11	1.48	5417	inactive
Slbp	DRSC16863	3.12	1.6	6385	inactive
CG10214	DRSC14213	3.93	5.99	6011	inactive
Or7a	DRSC18691	6.83	5.54	6606	inactive
CG9643	DRSC00722	9.77	4.16	6507	inactive
CG9643	DRSC27948	7.23	22.5	6290	inactive
CG32188	DRSC09510	0.2	0.05	6038	inactive
CG32445	DRSC11678	2.17	4.98	6448	inactive
CG12522	DRSC09088	0.52	0.55	6295	inactive
CG12522	DRSC25372	2.39	4.04	6355	inactive
CG15198	DRSC19645	7	9.28	6370	inactive
CR12628 + Mgstl	DRSC03702	6.89	23.4	6908	inactive
CR12628 + Mgstl	DRSC20568	14.7	3.08	6154	inactive
CG12708	DRSC19490	4.76	7.12	6323	inactive
Crys	DRSC03294	12.9	13.5	6473	inactive
Crys	DRSC24638	0.94	0.53	5973	inactive
Catsup	DRSC03288	0.62	2.92	649	inactive
Catsup	DRSC25727	1.11	5.42	6824	inactive
GluRIID	DRSC16723	2.08	5.83	7032	inactive
GluRIID	DRSC24866	2.82	2.26	5468	inactive
CG17721	DRSC15253	1.47	4.66	6537	inactive
Ugt36F1	DRSC02601	7.42	2.78	5428	inactive
NAAT1	DRSC18300	2.13	2.94	6136	inactive
NAAT1	DRSC25615	3.52	5.65	6759	inactive

In a second layout: entries from further up
target | dsRNA | infection score, replicate 1 | infection score, replicate 2 | cell count, replicate 1 | call
Slbp | DRSC16863 | 3.12 | 1.6 | 6385 | inactive
CG10214 | DRSC14213 | 3.93 | 5.99 | 6011 | inactive
Or7a | DRSC18691 | 6.83 | 5.54 | 6606 | inactive
CG9643 | DRSC00722 | 9.77 | 4.16 | 6507 | inactive
CG9643 | DRSC27948 | 7.23 | 22.5 | 6290 | inactive
CG32188 | DRSC09510 | 0.2 | 0.05 | 6038 | inactive
CG32445 | DRSC11678 | 2.17 | 4.98 | 6448 | inactive
CG12522 | DRSC09088 | 0.52 | 0.55 | 6295 | inactive
CG12522 | DRSC25372 | 2.39 | 4.04 | 6355 | inactive

Continued:
target	dsRNA	infection score, replicate 1	infection score, replicate 2	cell count, replicate 1	call
CG34429	DRSC10120	0.37	1.47	6280	inactive
CG44422	DRSC18885	8.21	5.12	6408	inactive
CG44422	DRSC19380	2.34	1.7	6506	inactive
CG44422	DRSC23284	0.66	25.1	5607	inactive
Jhbp13	DRSC02913	6.23	5.12	6855	inactive
Cyp4e2	DRSC07371	7.49	8.06	6062	inactive
CG16896	DRSC04284	29.1	34.4	3356	inactive
Gpo3	DRSC01978	24.1	13.7	4680	inactive
Fbw5	DRSC03146	11.2	2.2	5754	inactive
Fbw5	DRSC29431	7.29		1838	inactive
Ir93a	DRSC15212	4.57	4.46	6506	inactive
Ir93a	DRSC15213	6.18	2.75	5386	inactive
Ir93a	DRSC28149	23.4	7.62	4271	inactive
CG16775	DRSC10225	7.37	7.12	6226	inactive
CG13064	DRSC09947	1.68	1.21	6124	inactive
nrv2	DRSC00948	4.78	0.7	6208	inactive
nrv2	DRSC03383	10.9	13.7	5739	inactive
miple1	DRSC08722	1.63	1.34	5752	inactive
CG32235	DRSC23257	1.5	18.1	7243	inactive
snsl	DRSC00543	0.16	39.3	638	inactive
snsl	DRSC25714	6.74	4.4	5908	inactive
CG31115	DRSC13692	0.93	0.14	6038	inactive
CG31115	DRSC26097	4.32	8.48	5160	inactive
UQCR-6.4	DRSC06454	19.1	19.3	5652	inactive
UQCR-6.4	DRSC28738	23.5	33.1	5824	inactive
GstE13	DRSC06083	2.95	16.2	6438	inactive
CG14079	DRSC10083	3.1	6.41	6170	inactive
CG33267	DRSC09120	1.31	1.53	6091	inactive
CG31274 + MESK4	DRSC13202	5.9	2.14	6082	inactive
CG30395	DRSC03896	1.84	1.07	5588	inactive
CG8860	DRSC07291	10.6	2.51	6750	inactive
CG8860	DRSC25286	6.46	5.31	6691	inactive
